A mixed list of measured activities; the numbers were collected in NIAID ChemDB.

Shared fields: cytotoxicity tests; cells: MT-4; endpoint: CC50

An empty or dashed field is not shown. CCn is the concentration with n% toxicity to the cells. Rows are shuffled and stem from different studies.

SMILES,read by,result
C[C@H]1Cn2c(=S)[nH]c3cc(Cl)cc(c32)CN1CC1CCC1,-,28 µM
Cc1cn([C@H]2C[C@H](N=[N+]=[N-])[C@@H](CO)O2)c(=O)[nH]c1=O,MTT,168.5 µM
CC1=NO[C@@]2(CC[C@H](C)N3C[C@H]2n2cc(C(=O)NCc4ccc(F)cc4F)c(=O)c(OCOC(=O)N4CCC[C@H]4COP(=O)(O)O)c2C3=O)C1,luminescence,50 µM
CC(C)(C)OC(=O)CNC(=O)[C@@H](NC(=O)c1ccccc1-c1ccccc1)[C@@H]1N[C@@H](C(=O)NCCNC(=O)[C@@H]2N[C@@H]([C@H](NC(=O)c3ccccc3-c3ccccc3)C(=O)NCC(=O)OC(C)(C)C)SC2(C)C)C(C)(C)S1,-,>100 µM
Nc1ncnc2c1ncn2[C@H]1CC[C@@H](CO)O1,-,890 µM
Cc1ccnc2c1NC(=O)c1cccnc1N2C1CC1,MTT,>200 µM
Cc1cccc(Cc2nc(OC(C)C)[nH]c(=O)c2C)c1,-,>367 µM
CCC1(c2ccccc2)Oc2ccccc2-n2cccc2C1=O,-,3.31 µM
O=c1[nH]cnc2c1ncn2[C@H]1CC[C@@H](CO)O1,-,1000 µM
Cc1ccnc2c1NC(=O)c1cccnc1N2C1CC1,-,>50 µM
Nc1ccn([C@H]2CC[C@@H](CO)O2)c(=O)n1,MTT,>95 µM
CCC(=CCN1Cc2c(Cl)ccc3[nH]c(=S)n(c23)C[C@@H]1C)CC,-,12 µM
CCOP(=O)(N[C@@H](C)C(=O)OC)OC[C@H]1O[C@@H](n2cc(C)c(=O)[nH]c2=O)C[C@@H]1N=[N+]=[N-],MTT,>236 µg/mL
CC(C)=CCN1Cc2cccc3[nH]c(=O)n(c23)C[C@@H]1C,-,470 µM
O=C(CSc1nncnc1-c1cccc2ccccc12)Nc1ccccc1[N+](=O)[O-],MTT,142 µM
CC(C)(C)OC(=O)CNC(=O)[C@@H](NC(=O)Cc1ccccc1)[C@@H]1N[C@@H](C(=O)NCCNC(=O)[C@@H]2N[C@@H]([C@H](NC(=O)Cc3ccccc3)C(=O)NCC(=O)OC(C)(C)C)SC2(C)C)C(C)(C)S1,-,>100 µM
Cc1ccc(NC(=O)CSc2nncnc2-c2ccccc2Cl)c(Br)c1,MTT,45 µM
Nc1ccn([C@@H]2O[C@H](CO)C[C@@H]2F)c(=O)n1,MTT,150 µg/mL
Cc1cn([C@H]2C[C@H](N=[N+]=[N-])[C@@H](CO)O2)c(=O)[nH]c1=O,-,20 µM
Cc1c(Sc2ccccc2)n(COCCO)c(=O)[nH]c1=O,-,740 µM
CC1=NO[C@@]2(CC[C@H](C)N3C[C@H]2n2cc(C(=O)NCc4ccc(F)cc4F)c(=O)c(OCOC(=O)N(C)c4ncccc4CN(CC(=O)O)C(=O)OCOP(=O)(O)O)c2C3=O)C1,luminescence,10.1 µM
CCC(C)Oc1cc(N)nc(Sc2ccc(OC)cc2)n1,-,300 µM
COc1ccc(Cc2nccc3cc(OC)c(OC)cc23)cc1OC,MTT,1 µg/mL
CCC(=CCN1Cc2cc(Cl)cc3[nH]c(=O)n(c23)C[C@@H]1C)CC,-,22 µM
CC(=O)c1ccc(NC(=O)CSc2nncnc2-c2cccc3ccccc23)c(Br)c1,MTT,133 µM
CCN1C(=S)c2cn(C)cc2S(=O)(=O)c2cc(Cl)ccc21,MTT,>200 µM
C[C@H](CCC(=O)NCCS(=O)(=O)O)[C@H]1CC[C@H]2[C@@H]3CC[C@@H]4C[C@H](O)CC[C@]4(C)C3CC[C@]12C,MTT,250 µg/mL
CCC(C)Oc1cc(N)nc(Sc2cccc(OC)c2)n1,-,≥300 µM
CC1=NO[C@@]2(CC[C@H](C)N3C[C@H]2n2cc(C(=O)NCc4ccc(F)cc4F)c(=O)c(OCOC(=O)N(C)Cc4ccc(OP(=O)(O)O)cc4)c2C3=O)C1,luminescence,50 µM
C=COC(=O)OC[C@H]1O[C@@H](n2cc(C)c(=O)[nH]c2=O)C[C@@H]1N=[N+]=[N-],MTT,370.9 µM
Nc1ccn([C@H]2CC[C@@H](CO)O2)c(=O)n1,-,61.2 µg/mL
CCCCN1C[C@H](O)[C@@H](O)[C@H](O)[C@H]1CO,MTT,>250 µg/mL
Nc1nc2c(ncn2CCOCP(=O)(O)O)c(=O)[nH]1,-,2.4 µM
Nc1nc(Cl)nc2c1ncn2[C@@H]1O[C@H](CO)[C@H]1O,-,56 µg/mL
CCC(C)Oc1nc(N)cc(Sc2cc(C)cc(C)c2)n1,-,117 µM
C=CCN1Cc2cccc3[nH]c(=O)n(c23)C[C@@H]1C,-,680 µM
Cc1nn(-c2ccccc2)c2nnn(N)c12,-,200 µM
Nc1ncnc2c1nnn2CCOCP(=O)(O)O,-,>365 µM
CCC(C)Oc1cc(=O)[nH]c(Sc2ccc(C)cc2)n1,-,>300 µM
CCNC(=O)[C@@H](NC(=O)Cc1ccccc1)[C@@H]1N[C@@H](C(=O)NCCNC(=O)[C@@H]2NC(CNC(=O)Cc3ccccc3)SC2(C)C)C(C)(C)S1,-,>100 µM
O=c1[nH]cnc2c1ncn2[C@H]1CC[C@@H](CO)O1,MTT,>20 µg/mL
Cc1cn([C@@H]2C=C[C@H](COC(=O)NCCCCNC(=O)OC[C@H]3O[C@@H](n4cc(C)c(=O)[nH]c4=O)C[C@@H]3N=[N+]=[N-])O2)c(=O)[nH]c1=O,MTT,217.3 µM
CSCn1cc2c(c1)S(=O)(=O)c1cc(Cl)ccc1NC2=O,MTT,>200 µM
CO[C@H]1CC[C@H](C)N2C[C@H]1n1cc(C(=O)NCc3ccc(F)c(Cl)c3F)c(=O)c(O)c1C2=O,luminescence,4.272 µM
Nc1nc(I)nc2c1ncn2[C@@H]1O[C@H](CO)[C@H]1O,-,54 µg/mL
COc1nc(Cc2cccc(C)c2)c(C)c(=O)[nH]1,-,>381 µM
CCOP(=O)(O)COCCn1nnc2c(N)ncnc21,-,>331 µM
CCC(C)Oc1cc(=O)[nH]c(Sc2cc(C)cc(C)c2)n1,-,≥200 µM
CC(C)=NOC(=O)OC[C@H]1O[C@@H](n2cc(C)c(=O)[nH]c2=O)C[C@@H]1N=[N+]=[N-],MTT,155 µM
CCC(C)Oc1cc(N)nc(S(=O)(=O)c2ccc(Cl)cc2)n1,-,82 µM
CC1(C)[C@@H](O[C@H]2O[C@H](C(=O)O)[C@@H](O)[C@H](O)[C@H]2O[C@@H]2O[C@H](C(=O)O)[C@@H](O)[C@H](O)[C@H]2O)CC[C@]2(C)[C@H]3C(=O)C=C4[C@@H]5C[C@@](C)(C(=O)O)CC[C@]5(C)CC[C@@]4(C)[C@]3(C)CC[C@@H]12,-,2542 µM
O=c1cc(Cl)nc(Sc2ccccc2)[nH]1,-,186 µM
O=C1CSC(c2c(F)cccc2F)N1c1cccc(C(F)(F)F)c1,-,36.4 µM
C/C(=N\NC(N)=S)c1nc2ccc(Cl)cc2[nH]1,MTT,2.58 µg/mL
CC1(C)S[C@H]([C@H](NC(=O)Cc2ccccc2)C(=O)NCc2ccccc2)N[C@H]1C(=O)NCCNC(=O)[C@@H]1N[C@@H]([C@H](NC(=O)Cc2ccccc2)C(=O)NCc2ccccc2)SC1(C)C,-,>100 µM
Cc1cn([C@@H]2C=C[C@H](COC(=O)OC[C@@H]3C=C[C@H](n4cc(C)c(=O)[nH]c4=O)O3)O2)c(=O)[nH]c1=O,MTT,>52.7 µM
Nc1nc(Br)nc2c1ncn2[C@@H]1O[C@H](CO)[C@H]1O,-,30 µg/mL
CCC(=CCN1Cc2c(Br)ccc3[nH]c(=S)n(c23)C[C@@H]1C)CC,-,53 µM
Cc1cn([C@H]2C[C@H](N=[N+]=[N-])[C@@H](CO)O2)c(=O)[nH]c1=O,MTT,>20 µM
Cc1nn(-c2ccccc2)c2n[nH]nc12,-,>200 µM
CC1(C)S[C@H]([C@H](NC(=O)Cc2ccccn2)C(=O)NCc2ccccc2)N[C@H]1C(=O)NCCNC(=O)[C@@H]1N[C@@H]([C@H](NC(=O)Cc2ccccn2)C(=O)NCc2ccccc2)SC1(C)C,-,>100 µM
Cc1cccc(N2C(=O)CSC2c2cccnc2)n1,-,343 µM
CCOP(=O)(O)COCCn1nnc2c(=O)[nH]c(N)nc21,-,>315 µM
O=C1CSC(c2c(Cl)cccc2Cl)N1Cc1ccco1,-,44.5 µM
Cc1cc(C)cc(Cc2nc(OC3CCCC3)[nH]c(=O)c2C)c1,-,>320 µM
C[C@H]1CN(CCC2CC2)Cc2cc(Cl)cc3[nH]c(=S)n1c23,-,>810 µM
CC1=NO[C@@]2(CC[C@H](C)N3C[C@H]2n2cc(C(=O)NCc4ccc(F)cc4F)c(=O)c(OCOC(=O)N4CCOC[C@@H]4COP(=O)(O)O)c2C3=O)C1,luminescence,50 µM

3 of the rows above, restated:

SMILES | read by | result
Nc1nc2c(ncn2CCOCP(=O)(O)O)c(=O)[nH]1 | - | 2.4 µM
CCC(C)Oc1cc(N)nc(S(=O)(=O)c2ccc(Cl)cc2)n1 | - | 82 µM
C=CCN1Cc2cccc3[nH]c(=O)n(c23)C[C@@H]1C | - | 680 µM